Measured values from several laboratories, pooled; numbers as filed in NIAID ChemDB.

All rows: enzyme or target tests

Inhibition is in % at the dose shown (toxicity tests: loss of growth or viability).

smiles | measure | species | changes | strain or isolate | dose | protein | method | value
O=c1c2cccn2c2cc(Cl)c(Cl)cc2n1CCNC(=S)Nc1ccc(Br)cn1 | fold resistance | HIV-1 | RT-L100I |  |  | Reverse transcriptase | nucleotide incorporation | 12.5
C[C@H]1[C@H](O)c2c(c3c(c4c(-c5ccccc5)cc(=O)oc24)OC(C)(C)C=C3)O[C@@H]1C | IC50 | HIV-2 | RT-Y181C |  |  | Reverse transcriptase | scintillation proximity / radiometric | 0.16 µM
CC[C@H](C)[C@H](N)C(=O)O.[Na+] | IC50 | HIV-1 |  |  |  | Capsid | p24 / ELISA | 0.51 µM
CCCCNc1cc(C(=O)O)cc(S(N)(=O)=O)c1Oc1ccccc1 | inhibition | HIV-1 |  |  | 10 µM | Integrase | AlphaScreen | 32.15%
CC(C)CN(C[C@@H](O)[C@H](Cc1ccccc1)NC(=O)OCc1cccnc1)S(=O)(=O)c1ccc2ncsc2c1 | IC50 | HIV |  |  |  | Protease | fluorescence | 0.004 µM
O=C1N(Cc2ccc(CO)cc2)[C@H](COc2ccccc2)[C@H](O)[C@@H](O)[C@@H](COc2ccccc2)N1Cc1ccc(CO)cc1 | Ki | HIV | PR-I84V |  |  | Protease | fluorescence | 0.0004 µM
Cc1cn([C@H]2CC[C@@H](COP(=O)(O)OP(=O)(O)OP(=O)(O)O)O2)c(=O)[nH]c1=O | fold resistance | HIV-1 | RT-K103N |  |  | Reverse transcriptase | RT activity | 0.75
Nc1nc2c(ncn2[C@H]2CC[C@@H](COP(=O)(O)OP(=O)(O)OP(=O)(O)O)O2)c(=O)[nH]1 | fold resistance | HIV | RT-N137Y |  |  | Reverse transcriptase | nucleotide incorporation / radiometric | 24
O=c1cnc2ccccc2n1CCNC(=S)Nc1ccc(Br)cn1 | fold resistance | HIV-1 | RT-K103N |  |  | Reverse transcriptase | nucleotide incorporation | 3.1
CCCCCCCCCCCCCCCC(=O)N[C@H](C(=O)N[C@H](C(=O)N[C@@H](CO)C(=O)N[C@@H](Cc1ccc(O)cc1)C(=O)N[C@@H](CCC(=O)O)C(=O)N[C@@H](CC(C)C)C(=O)O)C(C)C)[C@@H](C)O | IC50 | HIV |  |  |  | Protease |  | 0.5 µM
Cc1ccccc1C(=O)N[C@@H](Cc1ccccc1)[C@H](O)CN(CC(C)C)S(=O)(=O)c1ccc2ncsc2c1 | IC50 | HIV |  |  |  | Protease | fluorescence | 0.004 µM
CCCCCCCCC[C@@H]1C[C@@H]2CC[C@H]3C(C(=O)OC(C)(C)C)=C(C)NC(=[N+]23)N1 | inhibition | HIV-1 |  | NL4-3 | 5 µM | Nef | ELISA | 96.5%
COC(=O)C(=O)OC1(C(=O)O)C[C@@H](OC(=O)/C=C/c2ccc(O)c(O)c2)C(O)[C@H](OC(=O)/C=C/c2ccc(O)c(O)c2)C1 | IC50 | HIV-1 |  |  |  | RNase H |  | >83 µM
CN[C@H]1C[C@@H]2O[C@](C)([C@H]1OC)n1c3ccccc3c3c4c(c5c6ccccc6n2c5c31)C(=O)NC4 | Ki | HIV-1 |  | LAV |  | Tat:TAR/LTR |  | 0.0007 µM
O=S1(=O)N(Cc2ccc(CO)cc2)[C@H](COc2ccccc2)[C@H](O)[C@@H](O)[C@@H](COc2ccccc2)N1Cc1ccc(CO)cc1 | fold resistance | HIV-1 | PR-V82A |  |  | Protease |  | 0.806
O=C(O[C@@H]1Cc2c(O)cc(O)cc2O[C@@H]1c1ccc(O)c(O)c1)c1cc(O)c(O)c(O)c1 | IC50 | HIV-1 |  |  |  | gp120 + CD4 | fluorescence | >100 µM
CC[C@H]1C=CCC[C@@]2(C[C@@H]3CC[C@@H]4[C@H](C(=O)OC/C=C/c5ccccc5)[C@]5(CCC[C@@H](C)O5)NC(=[N+]34)N2)O1 | inhibition | HIV-1 |  | NL4-3 | 5 µM | Nef | ELISA | 78.1%
CCCCc1[nH]cc(CC(Cc2cccs2)C(=O)O)[n+]1Cc1ccc(C(=O)O)cc1 | inhibition | HIV-1 |  |  | 10 µM | Integrase | AlphaScreen | 43.67%
CC(C)C[C@H](N)C(=O)O.[Na+] | IC50 | HIV-1 |  |  |  | Capsid | p24 / ELISA | 0.71 µM
Cc1cccc(C)c1OCC(=O)N[C@@H](Cc1ccccc1)[C@H](O)CN(CC(C)C)S(=O)(=O)c1ccc2ncsc2c1 | IC50 | HIV |  |  |  | Protease | fluorescence | 0.004 µM
O=C(NCCc1ccc(O)c(O)c1)c1cc2cc(O)c(O)cc2[nH]1 | IC50 | HIV-1 | Reverse transcriptase W535A |  |  | RNase H + Reverse transcriptase | RNase H / fluorescence | >100 µM
CNC(=O)[C@@H](NC(=O)[C@H](OCc1ccccc1)[C@H](O)[C@@H](O)[C@@H](OCc1ccccc1)C(=O)N[C@H]1c2ccccc2C[C@H]1O)C(C)C | fold resistance | HIV | PR-G48V V82A I84V L90M |  |  | Protease |  | 246
CC(C)CCN(C[C@@H](O)[C@H](Cc1ccccc1)NC(=O)OCc1ccccc1)C(=O)NC(C)(C)C | IC50 | HIV |  |  |  | Protease | fluorescence | 0.112 µM
C=C(C)[C@@H]1CC[C@]2(C(=O)O)CC[C@]3(C)[C@H](CC[C@@H]4[C@@]5(C)CC[C@H](O)C(C)(C)[C@@H]5CC[C@]43C)[C@@H]12 | IC50 | HIV-1 |  |  |  | RNase H | fluorescence | 2 µM
O=C1c2cccnc2C(=O)N1CCNC(=S)Nc1ccc(Br)cn1 | Ki | HIV-1 | RT-Y181I |  |  | Reverse transcriptase | nucleotide incorporation | 0.2 µM
CC[C@H]1C=CCC[C@@]2(C[C@@H]3CC[C@H]4[C@H](C(=O)OCCCCCCCCCCCCCCCC(=O)N(CCC[NH3+])C[C@@H](O)CC[NH3+])[C@@]5(CCC[C@@H](C)O5)NC(=[N+]34)N2)O1 | IC50 | HIV-1 |  | NL4-3 |  | Nef | ELISA | <5 µM
CC(C)[C@H](NC(=O)c1ccc2ccccc2n1)C(=O)N[C@@H](Cc1ccccc1)[C@H](O)CN1CC[C@@H](SCc2cccnc2)C[C@H]1C(=O)NC(C)(C)C | fold resistance | HIV | PR-V32I A71V |  |  | Protease | fluorescence | 26.5
O=C(O)c1ccc(-c2cccc(/C=N/NC(=O)c3cc(O)c(O)c(O)c3)c2)cc1 | IC50 | HIV-1 | I505V (179) |  |  | RNase H |  | 0.3 µM
O=C(O)c1cc(C(O)(c2ccc(O)c(C(=O)O)c2)c2ccc(O)c(C(=O)O)c2)ccc1O | IC50 | HIV |  |  |  | Integrase | substrate cleavage | 10–50 µM
O=C1CC(c2ccccc2)Oc2cc(OC3O[C@H](CO)[C@@H](O)[C@H](O)[C@H]3O)ccc21 | IC50 | HIV-1 |  |  |  | RNase H | fluorescence | 33 µM
Cc1c(O)cccc1C(=O)N[C@@H](Cc1ccccc1)[C@H](O)CN(CC(C)C)S(=O)(=O)c1ccc2ncsc2c1 | IC50 | HIV |  |  |  | Protease | fluorescence | 0.002 µM
CN(C)CCCNC(=O)c1cc(NC(=O)c2cc(NC(=O)c3cc(NC(=O)c4cccc(C(=O)Nc5cc(C(=O)Nc6cc(C(=O)Nc7cc(C(=O)NCCCN(C)C)n(C)c7)n(C)c6)n(C)c5)n4)cn3C)cn2C)cn1C | IC50 | HIV-2 |  |  |  | Integrase | 3′ processing | >100 µM
CC(C)c1nc(C(=O)NCc2ccc(F)cc2)c([O-])c(=O)n1C.CC(C)c1nc(C(=O)NCc2ccc(F)cc2)c([O-])c(=O)n1C.[Mg+2] | IC50 | HIV-1 |  |  |  | RNase H | substrate cleavage | 9.77 µM
O=P(O)(O)OP(=O)(O)O | Ki | HIV-1 | RT-Q161L H208Y |  |  | Reverse transcriptase |  | 3500 µM
O=c1c2cccn2c2cccc(F)c2n1CCNC(=S)Nc1ccc(Br)cn1 | Ki | HIV-1 | RT-K103N |  |  | Reverse transcriptase | nucleotide incorporation | 0.16 µM
O=C(/C=C/c1ccc(O)c(O)c1)O[C@@H]1C[C@](OC(=O)/C=C/c2ccc(O)c(O)c2)(C(=O)O)C[C@@H](O)[C@H]1O | IC50 | HIV-1 |  |  |  | RNase H |  | >>97 µM
CC(C)CN(C[C@@H](O)[C@H](Cc1ccccc1)NC(=O)OCc1ccccc1)S(=O)(=O)c1ccc2ncsc2c1 | IC50 | HIV |  |  |  | Protease | fluorescence | 0.003 µM
CC(C(=O)O)c1ccc(-c2ccccc2)c(F)c1 | inhibition | HIV-1 |  |  | 10 µM | Integrase | AlphaScreen | 3.37%
COc1ccc2c(c1)N(C(=O)OC(C)C)[C@@H](CSC)C(=S)N2 | IC50 | HIV-1 | RT-M184V G190E |  |  | Reverse transcriptase | scintillation proximity / radiometric | >29 µM
O=C(O)C1=CC(=C(c2ccc(O)c(C(=O)O)c2)c2ccc(O)c(C(=O)O)c2)C=CC1=O | IC50 | HIV |  |  |  | Integrase | substrate cleavage | 12 µM
Nc1ncnc2c1ncn2[C@@H]1O[C@H](COP(=O)(O)O)[C@@H](O)[C@H]1O | IC50 | HIV |  |  |  | RNase H |  | >10 µM
CC[C@H]1C(=O)Nc2ccc(F)cc2N1C(=O)OC(C)C | IC50 | HIV | RT-N137Y |  |  | Reverse transcriptase | nucleotide incorporation / radiometric | 0.008 µM
CC[C@H]1C=CCC[C@@]2(C[C@@H]3CC[C@@H]4[C@H](C(=O)OCCCCCCCCCCC(=O)N(CCC[NH3+])C[C@@H](O)CC[NH3+])[C@]5(CCC[C@@H](C)O5)NC(=[N+]34)N2)O1 | IC50 | HIV-1 |  | NL4-3 |  | Nef | ELISA | <5 µM
CC(C)Cc1ccc(C(C)C(=O)O)cc1 | inhibition | HIV-1 |  |  | 10 µM | Integrase | AlphaScreen | 22.03%
C=CCOC(=O)C1=C(C)NC(N)=[N+]2[C@H](C[C@@H](O)CCCCCCOCc3ccccc3)CC[C@H]12 | inhibition | HIV-1 |  | NL4-3 | 5 µM | Nef | ELISA | 102.4%
COc1ccc(/C=C/NC(=O)Nc2ccc(Cl)cn2)cc1OC | fold resistance | HIV-1 | RT-L100I |  |  | Reverse transcriptase | nucleotide incorporation | 1.43
Cc1cn([C@@H]2O[C@H](CO[Si](C)(C)C(C)(C)C)C3(OS(=O)(=O)C=C3N)[C@H]2O[Si](C)(C)C(C)(C)C)c(=O)n(C)c1=O | IC50 | HIV | RT-N137S |  |  | Reverse transcriptase | nucleotide incorporation / radiometric | 1.4 µM
COc1ccccc1-c1noc(=O)n1-c1cccc(C(F)(F)F)c1 | inhibition | HIV-1 |  |  | 1 µM | p17 | PCR | 53.5%
CN(C)CCCNC(=O)c1cc(NC(=O)c2cc(NC(=O)c3cc(NC(=O)c4ccc(C(=O)Nc5cc(C(=O)Nc6cc(C(=O)Nc7cc(C(=O)NCCCN(C)C)n(C)c7)n(C)c6)n(C)c5)nc4)cn3C)cn2C)cn1C | IC50 | HIV-2 |  |  |  | Integrase | 3′ processing | 0.52 µM
Cc1ccc(C(=O)Nc2ccc3c(=O)n(O)c(=O)[nH]c3c2)cc1 | IC50 | HIV-1 |  |  |  | RNase H | strand transfer / RNase H | 3.73 µM
CN(C)CCCNC(=O)c1cc(NC(=O)c2cc(NC(=O)c3cc(NC(=O)c4cnccc4C(=O)O)cn3C)cn2C)cn1C | IC50 | HIV-2 |  |  |  | Integrase | 3′ processing | >100 µM
CC(C)[C@H](N)C(=O)O.[Na+] | IC50 | HIV-1 |  |  |  | Capsid | p24 / ELISA | 0.68 µM
O=C(NCCCN1CCN(CCCNC(=O)c2cc3cc(O)c(O)cc3[nH]2)CC1)c1cc2cc(O)c(O)cc2[nH]1 | IC50 | HIV-1 |  |  |  | RNase H + Reverse transcriptase | RNase H / fluorescence | >100 µM
CN(C)CCCNC(=O)c1cc(NC(=O)c2cc(NC(=O)c3cc(NC(=O)c4ccc(C(=O)Nc5cc(C(=O)Nc6cc(C(=O)Nc7cc(C(=O)NCCCN(C)C)n(C)c7)n(C)c6)n(C)c5)cc4)cn3C)cn2C)cn1C | IC50 | HIV-2 |  |  |  | Integrase | 3′ processing | 0.27 µM
O=C1c2ccccc2[Se](=O)N1c1ccccc1 | IC50 | HIV-1 |  |  |  | Capsid | FRET / fluorescence | 0.0512 µM

Repeating the first 6 entries:

smiles	measure	species	changes	strain or isolate	dose	protein	method	value
O=c1c2cccn2c2cc(Cl)c(Cl)cc2n1CCNC(=S)Nc1ccc(Br)cn1	fold resistance	HIV-1	RT-L100I			Reverse transcriptase	nucleotide incorporation	12.5
C[C@H]1[C@H](O)c2c(c3c(c4c(-c5ccccc5)cc(=O)oc24)OC(C)(C)C=C3)O[C@@H]1C	IC50	HIV-2	RT-Y181C			Reverse transcriptase	scintillation proximity / radiometric	0.16 µM
CC[C@H](C)[C@H](N)C(=O)O.[Na+]	IC50	HIV-1				Capsid	p24 / ELISA	0.51 µM
CCCCNc1cc(C(=O)O)cc(S(N)(=O)=O)c1Oc1ccccc1	inhibition	HIV-1			10 µM	Integrase	AlphaScreen	32.15%
CC(C)CN(C[C@@H](O)[C@H](Cc1ccccc1)NC(=O)OCc1cccnc1)S(=O)(=O)c1ccc2ncsc2c1	IC50	HIV				Protease	fluorescence	0.004 µM
O=C1N(Cc2ccc(CO)cc2)[C@H](COc2ccccc2)[C@H](O)[C@@H](O)[C@@H](COc2ccccc2)N1Cc1ccc(CO)cc1	Ki	HIV	PR-I84V			Protease	fluorescence	0.0004 µM

ICn: concentration for n% inhibition. Conditions beyond the fields shown may differ between rows. Two numbers with a dash give a range or band. Fold resistance: result on the changed form divided by that on wild type. An empty or dashed field is not shown.